Compound potency records, mixed from different reports. Data source: NIAID ChemDB in PubChem.

All rows: whole-cell or culture tests

Two numbers with a dash give a range or band. Rows are shuffled and stem from different studies. ECn is the concentration giving n% inhibition of infection, replication or growth. Percent inhibition refers to the dose given; in toxicity tests it is the harm to the cells. Blank or dashed fields: not listed here. A number after MIC or MFC names an inhibition level or a share of isolates. Zone: diameter of growth inhibition.

compound | species | strain | mutations | cells | method | measure | dose | value
C[C@H]1[C@H](O)[C@@H](C)/C=C/C=C/C=C/C=C/C=C/C=C/C=C/[C@H](O[C@@H]2O[C@H](C)[C@@H](O)[C@H](N)[C@@H]2O)C[C@@H]2O[C@](O)(C[C@@H](O)C[C@@H](O)CC[C@H](O)[C@@H](O)C[C@@H](O)CC(=O)O[C@H]1C)C[C@H](O)[C@H]2C(=O)O | Cryptosporidium parvum | Calf isolate | - | L929 | - | inhibition | 0.8 µg/mL | -18.52%
NC(=O)c1c[se]c([C@@H]2O[C@H](CO)[C@@H](O)[C@H]2O)n1 | West Nile virus | NEW YORK | - | MA-104 | cytopathic effect / visual reading | EC50 | - | 8.1 µg/mL
N=C(N)c1ncn([C@@H]2O[C@H](CO)[C@@H](O)[C@H]2O)n1 | Influenza A virus (H1N1) | A/NWS/33 | - | MDCK | neutral red | EC50 | - | 18 µg/mL
C=CCN1CCC2(C1)C1CC3CC(C1)CC2C3 | Coxsackie virus | TYPE A21 | - | HeLa | - | inhibition | 100 µM | 40–70%
CC(C)COC(=O)C(O)Cn1cnc2c(N)ncnc21 | Tacaribe virus | TRVL 11573 | - | VERO | cytopathic effect | EC50 | - | 9 µg/mL
COC(=O)[C@H]1[C@@H]2C[C@@H](O[C@@H]3O[C@H](C)[C@@H](O)[C@H](N)[C@@H]3O)/C=C/C=C/C=C/C=C/C=C/C=C/C=C/[C@H](C)[C@@H](O)[C@H](C)[C@H](C)OC(=O)C[C@H](O)C[C@H](O)[C@@H](O)CC[C@H](O)C[C@H](O)C[C@](O)(C[C@@H]1O)O2 | Vesicular stomatitis virus | - | - | L929 | plaque count | inhibition | 50 µg/mL | 6%
Nc1ncnc2c1ncn2[C@@H]1C=C(CO)[C@@H](O)[C@H]1O | Tacaribe virus | TRVL 11573 | - | VERO | cytopathic effect | EC50 | - | 0.3 µg/mL
NC12CC3CC(CC(C3)C1)C2 | Coxsackie virus | TYPE A21 | - | HeLa | - | inhibition | 100 µM | <20%
Cc1cn([C@H]2C[C@H](N=[N+]=[N-])[C@@H](CO)O2)c(=O)[nH]c1=O | Cryptosporidium parvum | Calf isolate | - | L929 | - | inhibition | 0.032 µg/mL | -19.41%
CCOC(=O)Nc1cc2[nH]c(-c3ccc(OC)cc3)nc2c(NC(c2ccccc2)c2ccccc2)n1 | Encephalitozoon intestinalis | - | - | RK-13 | - | inhibition | 1 µg/mL | 51.5%
Cc1ccc(N2NOC(=O)C2S(=O)(=O)Nc2nc(-c3ccc(Cl)cc3)cs2)cc1 | Aspergillus clavatus | MTCC323 | - | - | broth dilution | MIC | - | 500 µg/mL
CC[C@@]1(O)C(=O)OCc2c1cc1n(c2=O)Cc2cc3c(N)c4c(cc3nc2-1)OCO4 | Saccharomyces cerevisiae | Mutant ΔERG6 ΔTOP1 | - | - | - | MIC | - | >100 µg/mL
COc1cc(OC)cc(N(C)Cc2cnc3nc(N)nc(N)c3c2C)c1 | Encephalitozoon intestinalis | - | - | RK-13 | - | inhibition | 0.01 µg/mL | 40.6%
CC[C@@]1(OC(=O)CN)C(=O)OCc2c1cc1n(c2=O)Cc2cc3cc4c(cc3nc2-1)OCO4 | Saccharomyces cerevisiae | JHY6-1C | - | - | - | MIC | - | 3.12 µg/mL
COc1ccc2nc(NS(=O)(=O)C3C(=O)ONN3c3ccc(C)cc3)sc2c1 | Aspergillus clavatus | MTCC323 | - | - | broth dilution | MIC | - | 250 µg/mL
O=C(CCCN1CC=C(n2c(=O)[nH]c3ccccc32)CC1)c1ccc(F)cc1 | Saccharomyces cerevisiae | CaCdr2p | - | - | flow cytometry | inhibition | 5 µM | 86.7%
CCCN1CCN(c2cc(=O)c3nc4c(oc3c2)c2c(=O)c3c(O)c(C)c5c(c34)=C(O)[C@@](C)(O/C=C/[C@H](OC)[C@@H](C)[C@@H](OC(C)=O)[C@H](C)[C@H](O)[C@H](C)[C@@H](O)[C@@H](C)/C=C/C=C(/C)C(=O)N2)O5)CC1 | Staphylococcus aureus | 20 strains (methicillin-susceptible) | - | - | - | MIC50 | - | 0.0039 µg/mL
O=c1cnn([C@@H]2O[C@H](CO)[C@@H](O)[C@H]2O)c(=O)[nH]1 | West Nile virus | NEW YORK | - | MA-104 | virus yield | EC50 | - | <0.3 µg/mL
N#CC[C@H](C1CCCC1)n1cc(-c2ncnc3[nH]ccc23)cn1 | SHIV | - | - | PBMC | p24 / ELISA | EC90 | - | 1.3 µM
CCCCCCCCN(CC1=C(O)c2ccccc2C(=O)C1=O)Cc1ccccc1 | Toxoplasma gondii | PLK | - | - | - | EC50 | - | 3 µM
Cc1ccc(N2NOC(=O)C2S(=O)(=O)Nc2ccc(-n3c(-c4cccc(Cl)c4)nc4ccccc4c3=O)cc2)cc1 | Aspergillus clavatus | MTCC323 | - | - | agar diffusion | zone | 250 µg/mL | 24 mm
O=c1[nH]cnc2c([C@@H]3O[C@H](CO)[C@@H](O)[C@H]3O)[nH]nc12 | West Nile virus | NEW YORK | - | VERO | cytopathic effect | EC50 | - | >43 µg/mL
NC(=O)c1ncn([C@@H]2O[C@H](CO)[C@@H](O)[C@H]2O)n1 | Sandfly fever virus | Sicilian | - | VERO | cytopathic effect | EC50 | - | 21.7 µg/mL
COc1ccc2cc3[n+](cc2c1OC)CCc1cc2c(cc1-3)OCO2 | Encephalitozoon intestinalis | - | - | RK-13 | - | inhibition | 0.01 µg/mL | 41%
CCCCN(CCCC)CCC(O)c1cc2c(Cl)cc(Cl)cc2c2cc(C(F)(F)F)ccc12 | Cryptosporidium parvum | Calf isolate | - | L929 | - | EC50 | - | <4 µg/mL
CC(=O)N[C@H]1[C@@H](O[C@@H]2O[C@H](C[C@@H](O)[C@H]3O[C@@H](n4ccc(=O)[nH]c4=O)[C@H](O)[C@@H]3O)[C@H](O)[C@H](O)[C@H]2NC(=O)/C=C/CC(C)C)O[C@H](CO)[C@@H](O)[C@@H]1O | Semliki Forest virus | - | - | VERO | plaque count | inhibition | 0.5 µg/mL | 92.6%
NC(=O)c1nc[nH]c1C(N)=O | Cryptosporidium parvum | Human isolate | - | L929 | - | inhibition | 0.032 µg/mL | -14.97%
Nc1ccn([C@@H]2C=C(CO)[C@@H](O)[C@@H]2O)c(=O)n1 | West Nile virus | NEW YORK | - | MA-104 | virus yield | EC50 | - | <1.4 µg/mL
COc1ccc(-c2oc3c(CC=C(C)C)c(OC4O[C@H](CO)[C@@H](O)[C@H](O)[C@H]4O)cc(O)c3c(=O)c2O[C@@H]2O[C@@H](C)[C@H](O)[C@@H](O)[C@H]2O)cc1 | SIV | MAC251 | - | PBMC | PCR | EC50 | - | 7.314 µM
CN1CCC2(C1)C1CCCC2CCC1 | Coxsackie virus | TYPE A21 | - | HeLa | - | inhibition | 100 µM | 20–40%
CO[C@H]1[C@@H](OC(=O)/C=C/C=C/C=C/C=C/C(=O)O)CC[C@@]2(CO2)[C@@H]1[C@@]1(C)O[C@@H]1CC=C(C)C | Vittaforma corneae | - | - | - | - | MIC | - | 0.00081 µg/mL
CO[C@@H]1C[C@@H](C[C@H]2CC[C@H](C)[C@H]([C@@H](C)C(=O)O)O2)O[C@]2(O[C@](C)([C@H]3CC[C@@](C)([C@@H]4O[C@@H]([C@H]5O[C@@](O)(CO)[C@H](C)C[C@@H]5C)C[C@@H]4C)O3)C[C@H]2C)[C@@H]1C | Cryptosporidium parvum | Calf isolate | - | L929 | - | inhibition | 0.8 µg/mL | 66.14%
COc1cc2c(cc1OC)C1OCCCN1c1c-2ccc2cc3c(cc12)OCO3 | Saccharomyces cerevisiae | Mutant ΔERG6 ΔTOP1 | - | - | - | MIC | - | 50 µg/mL
C#CC[C@@H](C(=O)N[C@H](/C=C/C(=O)OCC)C[C@@H]1CCNC1=O)n1cccc(NC(=O)c2cc(C)on2)c1=O | Rhinovirus | Serotype 3 | - | H1-HELA | cytopathic effect / XTT | inhibition | 0.063 µM | 90%
N/C(=N\N=C\c1ccc(Cl)cc1)N/N=C/c1ccc(Cl)cc1 | Cryptosporidium parvum | Human isolate | - | L929 | - | inhibition | 20 µg/mL | 7.54%
Cc1ccc(N2NOC(=O)C2S(=O)(=O)Nc2nc3cc(C)ccc3s2)cc1 | Aspergillus clavatus | MTCC323 | - | - | agar diffusion | zone | 250 µg/mL | 24 mm
CC[C@@]1([C@@H]2O[C@@H]([C@H]3O[C@@](O)(CO)[C@H](C)C[C@@H]3C)C[C@@H]2C)CC[C@H]([C@]2(C)CC[C@]3(C[C@H](O)[C@@H](C)[C@@H]([C@@H](C)[C@@H](OC)[C@H](C)C(=O)O)O3)O2)O1 | Cryptosporidium parvum | Calf isolate | - | L929 | - | inhibition | 0.8 µg/mL | 94.89%
NC(=O)c1ncn([C@@H]2O[C@H](CO)[C@@H](O)[C@H]2O)n1 | Measles virus | CC | - | CV-1 | neutral red | EC50 | - | 20 µg/mL
CO[C@@H]1C[C@@H](C[C@H]2CC[C@H](C)[C@H](CC(O)CCC(C)/C=C(\C)C(=O)O)O2)OC2(O[C@](C)([C@H]3CC[C@@](C)([C@@H]4O[C@@H]([C@H]5O[C@@](O)(CO)[C@H](C)C[C@@H]5C)C[C@@H]4C)O3)C[C@H]2C)[C@@H]1C | Toxoplasma gondii | RH | - | - | uracil uptake / radiometric | inhibition | 1 µg/mL | 100%
Nc1ccn([C@@H]2C[C@H](CO)[C@@H](O)[C@H]2O)c(=O)n1 | Tacaribe virus | TRVL 11573 | - | VERO | cytopathic effect | EC50 | - | 0.3 µg/mL
NC(=O)c1[nH]nc([C@@H]2O[C@H](CO)[C@@H](O)[C@H]2O)c1O | West Nile virus | NEW YORK | - | MA-104 | cytopathic effect / visual reading | EC50 | - | 0.5 µg/mL
CC(=O)NC[C@H]1CN(c2ccc(N3CCOCC3)c(F)c2)C(=O)O1 | Streptococcus pneumoniae | Penicillin-susceptible | - | - | - | MIC50 | - | 0.5 µg/mL
Cc1ccc(N2NOC(=O)C2S(=O)(=O)Nc2nc3cc(F)ccc3s2)cc1 | Aspergillus clavatus | MTCC323 | - | - | agar diffusion | zone | 250 µg/mL | 23 mm
Nc1nccc2c1ncn2[C@@H]1O[C@H](CO)[C@@H](O)[C@H]1O | Tacaribe virus | TRVL 11573 | - | VERO | cytopathic effect | EC50 | - | 2.8 µg/mL
Cc1ccc(C(=O)Nc2ccc(S(=O)(=O)O)c3cc(S(=O)(=O)O)cc(S(=O)(=O)O)c23)cc1NC(=O)c1cccc(NC(=O)Nc2cccc(C(=O)Nc3cc(C(=O)Nc4ccc(S(=O)(=O)O)c5cc(S(=O)(=O)O)cc(S(=O)(=O)O)c45)ccc3C)c2)c1 | Sandfly fever virus | Sicilian | - | VERO | cytopathic effect | EC50 | - | 14.7 µg/mL
COc1cc2c[n+](C)c3c4cc5c(cc4ccc3c2cc1OC)OCO5 | Saccharomyces cerevisiae | Mutant ΔERG6 ΔTOP1 | - | - | - | MIC | - | 3.12 µg/mL
Nc1ncnc2c1ncn2C[C@H](O)CO | Tacaribe virus | TRVL 11573 | - | VERO | cytopathic effect | EC50 | - | 15 µg/mL
N#Cc1c(Br)n([C@@H]2O[C@H](CO)[C@@H](O)[C@H]2O)c2ncnc(N)c12 | West Nile virus | NEW YORK | - | VERO | cytopathic effect | EC50 | - | >10.6 µg/mL
O=C1N(Cc2ccc(CO)cc2)[C@H](Cc2ccccc2)[C@H](O)[C@@H](O)[C@@H](Cc2ccccc2)N1Cc1ccc(CO)cc1 | HIV-1 | NL4-3 | PR-L10R M46I V82T | MT-4 | p24 | EC95 | - | 0.2 µM
CCOC(=O)Nc1cc(NC(C)/C(=N/O)c2ccc(O)cc2)c([N+](=O)[O-])c(N)n1 | Encephalitozoon intestinalis | - | - | RK-13 | - | inhibition | 1 µg/mL | 26.5%
C=CC(=O)NCC(=O)N1C[C@H](Oc2nccc3ccc(Br)cc23)C[C@H]1C(=O)N[C@]1(C(=O)NS(=O)(=O)C2CC2)C[C@H]1C=C | Hepatitis C virus | 1b R155K | - | - | luciferase | EC50 | - | 0.815 µM
CC(C)(C)NC(=O)[C@@H]1C[C@@H]2CCCC[C@@H]2CN1C[C@@H](O)[C@H](Cc1ccccc1)NC(=O)[C@H](CC(N)=O)NC(=O)c1ccc2ccccc2n1 | HIV-1 | NL4-3 | PR-L10R L63P | MT-4 | p24 | EC95 | - | 0.025 µM
CCOC1c2cc(OC)c(OC)cc2-c2ccc3cc4c(cc3c2N1C)OCO4 | Saccharomyces cerevisiae | Mutant ΔERG6 ΔTOP1 | - | - | - | MIC | - | 3.12 µg/mL
Cc1cn([C@H]2C[C@H](N=[N+]=[N-])[C@@H](CO)O2)c(=O)[nH]c1=O | SHIV | - | - | Macrophage | p24 / ELISA | EC90 | - | 0.9 µM
COc1c(C)c2c(c(O)c1C/C=C(\C)CCC(=O)O)C(=O)OC2 | West Nile virus | NEW YORK | - | MA-104 | cytopathic effect / visual reading | EC50 | - | 0.9 µg/mL
CCOC(=O)Nc1cc2c(c(N)n1)N=C(c1ccccc1)CCN2 | Encephalitozoon intestinalis | - | - | RK-13 | - | inhibition | 0.01 µg/mL | 73.2%
CC[C@]1(O)C(=O)OCc2c1cc1n(c2=O)Cc2cc3cc4c(cc3nc2-1)OCO4 | Saccharomyces cerevisiae | Mutant ΔERG6 ΔTOP1 | - | - | - | MIC | - | >100 µg/mL
O=C[C@@H](CO)O[C@H](C=O)n1ccc(=O)[nH]c1=O | West Nile virus | NEW YORK | - | VERO | cytopathic effect | EC50 | - | 85 µg/mL
CO[C@@H]1[C@H](OC(=O)NC(=O)CCl)CC[C@]2(CO2)[C@H]1[C@@]1(C)O[C@@H]1CC=C(C)C | Vittaforma corneae | - | - | RK-13 | - | inhibition | 0.0001 µg/mL | 35.8%

For reference, 4 entries again:

compound	species	strain	mutations	cells	method	measure	dose	value
CCOC(=O)Nc1cc2c(c(N)n1)N=C(c1ccccc1)CCN2	Encephalitozoon intestinalis	-	-	RK-13	-	inhibition	0.01 µg/mL	73.2%
Cc1cn([C@H]2C[C@H](N=[N+]=[N-])[C@@H](CO)O2)c(=O)[nH]c1=O	SHIV	-	-	Macrophage	p24 / ELISA	EC90	-	0.9 µM
N#Cc1c(Br)n([C@@H]2O[C@H](CO)[C@@H](O)[C@H]2O)c2ncnc(N)c12	West Nile virus	NEW YORK	-	VERO	cytopathic effect	EC50	-	>10.6 µg/mL
NC(=O)c1ncn([C@@H]2O[C@H](CO)[C@@H](O)[C@H]2O)n1	Measles virus	CC	-	CV-1	neutral red	EC50	-	20 µg/mL